This note sets out measurements from patent US20140073631A1 (priority 2012, published 2014).

Common to all, as to type: cell-based
Data set [1] relates to Flu A H1N1 New Caledonia/20/99. The data set is described as follows: Anti-influenza testing, visual and NR assays. The note with it: MDCK.
The test system of data set [2] is HIV-1 ROJO (low passage clinical strain). The data set is described as follows: PBMC assay, virus production by reverse transcriptase activity. The conditions noted are these: TC50/IC50, PBMC.
The test system of data set [3] is Flu A H3N2 California/7/04. Put plainly: Anti-influenza testing, visual and NR assays. The conditions noted are these: MDCK.
The next data set has as its system HIV-1. The data set is described as follows: CEM-SS microtiter antiviral XTT cytoprotection assay. For orientation: Formazan colour is commonly taken as a measure of viable cells.

Each structure is given as a SMILES string.

In data set [1] (Neutral Red assay, trial 1), `N#CNC(=N)NC1C2CC3CCC1(NC(=N)NC#N)CC3C2` (stereo not shown) [BVS-47] returned a Si greater than 280.
As for `Cc1cn([C@H]2C[C@H](N=[N+]=[N-])[C@@H](CO)O2)c(=O)[nH]c1=O` [AZT, reference compound], the TI result in data set [2] is “TI = >40.0”.
As for `O=C1C2C=CC=C([N+](=O)[O-])C2(C(=O)O)C(c2ccccc2)N1c1ccc(O)cc1` (stereo not shown) [BVS-45], the Si in data set [1] (Virus Yield assay, trial 2) is recorded as 0; in data set [1] (Visual assay, trial 1), greater than 580; in data set [1] (Visual-CONF assay, trial 2), greater than 560; in data set [3] (Neutral Red assay, trial 1), 340; in data set [3] (Virus Yield assay, trial 2) it was greater than 667; in data set [3] (Visual assay, trial 1) it was greater than 1786. The Si in data set [3] (Visual-CONF assay, trial 2) is greater than 1786.
Take `N=C(NCCCCCCNC(=N)NC(=N)N1CCN(c2cc3c(cc2F)c(=O)c(C(=O)O)cn3C2CC2)CC1)NC(=N)N1CCN(c2cc3c(cc2F)c(=O)c(C(=O)O)cn3C2CC2)CC1` [BVS-10A]: in the data set on HIV-1 (CEM-SS cells), the therapeutic index was greater than 10. The SI result in the data set with HIV-1 (CEM-SS, plate head) is given as “SI: >6.01”. In addition, the “ANTIVIRAL INDEX (AI) 25%” value with HIV-1 (TC25/IC25, CEM-SS) was greater than 8.33. Also, the “ANTIVIRAL INDEX (AI) 50%” value with HIV-1 (TC50/IC50, CEM-SS) is listed as greater than 6.01. Also, in the data set with HIV-1 (TC95/IC95, CEM-SS), the “ANTIVIRAL INDEX (AI) 95%” value is reported as greater than 3.34. Besides, the results for the TI result in data set [2] and in data set [2] (listed as BVS 10A) were “approximately 50” and “TI = >39.4”, respectively.
